The record followed here is patent publication US9428542B2, “Lupane triterpenoid derivatives and pharmaceutical use thereof” (priority 2012, dated 2016).

For the series, the system named is HIV-1IIIB. Kind of series: HIV-1 full replication assay (HIV-1IIIB-infected MT-2 cells, supernatant read out on TZM-bl cells, β-Gal). It counts as cell-based. The note with it: Therapeutic Index (TI)=TC50/IC50. Here is the method: The antiviral activity of the compounds of the present invention was determined in a HIV-1 full replication assay.
In this assay, MT-2 cells that are infected with HIV-1IIIB were co-cultured with different concentration of the tested compounds for 3 days and then supernatant is transferred into new 384-well plates containing TZM-bl cells (also called JC53-bl). TZM-bl cells that could be infected by various kinds of HIV-1 strains stably express a great amount of HIV-1 receptor, co-receptor CD4 molecular, and co-receptor CXCR4 and CCR5. TZM-bl cells harbor LTR-luciferase and β-gal two report genes. The expression of luciferase and β-gal reporter directed by HIV-1 LTR can be activated by Tat protein generated after HIV infection, and the quantity of expression is proportional to the quantity of HIV-1. Compounds that interfere with virus replication in MT-2 cells, maturation of the virus, or post-entry steps in the HIV lifecycle decrease the luciferase signal or β-gal signal. In this experiment, BVM (Bevirimat, PA-457) is used as a positive control drug.
Method for Inhibiting HIV-1 Replication Assay:
The MT-2 cells are infected at a Multiciplicity (MOI) of 0.01 TCID50, and then the MT-2 cells suspension was diluted to a needed concentration. 90 μl of the MT-2 cells suspension from above was added into 384-well plates containing 10 μl of the tested compounds.
Compounds were dissolved in DMSO and tested as 11 points 3-fold serial dilutions. After addition of cells to compound plates, plates were placed to humidified 5% CO2 37 incubator for 3 days. 10 μl of cells culture supernatant from the incubated plates was transferred into new black 384-well plates.
Adjusted the TZMb1 cells concentration and 40 μl of TZMb1 cells was added into each well in the black 384-well plates. After addition of the TZMb1 cells to the black plates, black plates were placed to humidified 5% CO2 37 incubator for 24 h, then β-Gal activity was measured.
The anti viral activity %=(measured number-lowest mean number)/(highest mean number-lowest mean number)×100. The IC50 values were calculated by Median Equation and the IC curve was generated by Graphpad Prism V 5.03.
TC50 is referred to the toxicity in MT-2 cells by the compounds tested at 50% concentration; IC50 is referred to the inhibiting HIV-1IIIB replication in MT-2 cells by the compounds tested at 50% concentration; Therapeutic Index (TI)=TC50/IC50.
`CC(C)C1=C2[C@H]3CC[C@@H]4[C@@]5(C)CC[C@H](OC(=O)CC(C)(C)C(=O)O)C(C)(C)[C@@H]5CC[C@@]4(C)[C@]3(C)CC[C@@]2(c2cc(=O)n(Cc3ccc(Cl)cc3)n2C)CC1=O` [91′-1] registered a TI of 373.

`CC(C)C1=C2[C@H]3CC[C@@H]4[C@@]5(C)CC[C@H](OC(=O)CC(C)(C)C(=O)O)C(C)(C)[C@@H]5CC[C@@]4(C)[C@]3(C)CC[C@@]2(Cc2cc(=O)n(-c3ccc(Cl)cc3)n2C)CC1=O` [98′-1] showed a TI of 364706.

`CC(C)C1=C2[C@H]3CC[C@@H]4[C@@]5(C)CC[C@H](OC(=O)CC(C)(C)C(=O)O)C(C)(C)[C@@H]5CC[C@@]4(C)[C@]3(C)CC[C@@]2(Cc2cc(=O)n(-c3ccc(Cl)cn3)n2C)CC1=O` [98′-2] returned a TI of 151351.

`C=C(C)[C@@H]1CC[C@]2(C(=O)O)CC[C@]3(C)[C@H](CC[C@@H]4[C@@]5(C)CC[C@H](OC(=O)CC(C)(C)C(=O)O)C(C)(C)[C@@H]5CC[C@]43C)[C@@H]12` [BVM, Bevirimat, reference compound] returned a TI of 12800.

Take `CC(C)C1=C2[C@H]3CC[C@@H]4[C@@]5(C)CC[C@H](OC(=O)CC(C)(C)C(=O)O)C(C)(C)[C@@H]5CC[C@@]4(C)[C@]3(C)CC[C@@]2(Cc2nnc(-c3ccc(Cl)cc3)o2)CC1=O` [Compound 22-1]: the TI came to 13939.

As to `CC(C)C1=C2[C@H]3CC[C@@H]4[C@@]5(C)CC[C@H](OC(=O)CC(C)(C)C(=O)O)C(C)(C)[C@@H]5CC[C@@]4(C)[C@]3(C)CC[C@@]2(Cc2nnc(-c3ccccc3)o2)CC1=O` [Compound 22-2], the TI is on record as 16470.

The compound `CC(C)C1=C2[C@H]3CC[C@@H]4[C@@]5(C)CC[C@H](OC(=O)CC(C)(C)C(=O)O)C(C)(C)[C@@H]5CC[C@@]4(C)[C@]3(C)CC[C@@]2(Cc2nnc(-c3ccc(Cl)cn3)o2)CC1=O` [Compound 22-3] gave a TI of 22500.

`CC(C)C1=C2[C@H]3CC[C@@H]4[C@@]5(C)CC[C@H](OC(=O)CC(C)(C)C(=O)O)C(C)(C)[C@@H]5CC[C@@]4(C)[C@]3(C)CC[C@@]2(Cc2nnc(-c3cccnc3)o2)CC1=O` [Compound 22-9] yielded a TI of 7674.

Compound `CC(C)C1=C2[C@H]3CC[C@@H]4[C@@]5(C)CC[C@H](OC(=O)CC(C)(C)C(=O)O)C(C)(C)[C@@H]5CC[C@@]4(C)[C@]3(C)CC[C@@]2(Cc2nnc(-c3ccc(C(F)(F)F)cn3)o2)CC1=O` [Compound 22-12] had a TI of 77500.

`CC(C)C1=C2[C@H]3CC[C@@H]4[C@@]5(C)CC[C@H](OC(=O)CC(C)(C)C(=O)O)C(C)(C)[C@@H]5CC[C@@]4(C)[C@]3(C)CC[C@@]2(Cc2nnc(-c3ccc(Cl)cc3F)o2)CC1=O` [Compound 22-13]: the TI was determined as 20588.

In turn, `CC(C)C1=C2[C@H]3CC[C@@H]4[C@@]5(C)CC[C@H](OC(=O)CC(C)(C)C(=O)O)C(C)(C)[C@@H]5CC[C@@]4(C)[C@]3(C)CC[C@@]2(Cc2nnc(-c3ccc(Br)cn3)o2)CC1=O` [Compound 22-14] registered a TI of 1176470.

Regarding `CC(C)C1=C2[C@H]3CC[C@@H]4[C@@]5(C)CC[C@H](OC(=O)CC(C)(C)C(=O)O)C(C)(C)[C@@H]5CC[C@@]4(C)[C@]3(C)CC[C@@]2(Cc2nnc(-c3ccc(C#N)cn3)o2)CC1=O` [Compound 22-15], the TI amounted to 16191.

Turning to `CC(C)C1=C2[C@H]3CC[C@@H]4[C@@]5(C)CC[C@H](OC(=O)CC(C)(C)C(=O)O)C(C)(C)[C@@H]5CC[C@@]4(C)[C@]3(C)CC[C@@]2(Cc2nnc(-c3ncc(Cl)cn3)o2)CC1=O` [Compound 22-16], the TI amounted to 81250.

`COc1ccc(-c2nnc(C[C@@]34CC[C@]5(C)[C@H](CC[C@@H]6[C@@]7(C)CC[C@H](OC(=O)CC(C)(C)C(=O)O)C(C)(C)[C@@H]7CC[C@]65C)C3=C(C(C)C)C(=O)C4)o2)nc1` [Compound 22-17] registered a TI of 71429.

On to `CC(C)C1=C2[C@H]3CC[C@@H]4[C@@]5(C)CC[C@H](OC(=O)CC(C)(C)C(=O)O)C(C)(C)[C@@H]5CC[C@@]4(C)[C@]3(C)CC[C@@]2(Cc2nnc(-c3ccc(F)cn3)o2)CC1=O` [Compound 22-18], for which the TI stood at 28235.

For `CC(C)C1=C2[C@H]3CC[C@@H]4[C@@]5(C)CC[C@H](OC(=O)CC(C)(C)C(=O)O)C(C)(C)[C@@H]5CC[C@@]4(C)[C@]3(C)CC[C@@]2(c2nnc(-c3ccc(Cl)cc3)o2)CC1=O` [Compound 27-1], the TI is recorded as 15151.

Regarding `CC(C)C1=C2[C@H]3CC[C@@H]4[C@@]5(C)CC[C@H](OC(=O)CC(C)(C)C(=O)O)C(C)(C)[C@@H]5CC[C@@]4(C)[C@]3(C)CC[C@@]2(c2nnc(-c3ccccc3)o2)CC1=O` [Compound 27-2], the TI is 50000.

For `CC(C)C1=C2[C@H]3CC[C@@H]4[C@@]5(C)CC[C@H](OC(=O)CC(C)(C)C(=O)O)C(C)(C)[C@@H]5CC[C@@]4(C)[C@]3(C)CC[C@@]2(c2nnc(-c3ccc(Cl)cn3)o2)CC1=O` [Compound 27-3], the TI came to 24000.

In the case of `CC(C)C1=C2[C@H]3CC[C@@H]4[C@@]5(C)CC[C@H](OC(=O)CC(C)(C)C(=O)O)C(C)(C)[C@@H]5CC[C@@]4(C)[C@]3(C)CC[C@@]2(c2nnc(-c3cccnc3)o2)CC1=O` [Compound 27-9], the TI is listed as 22727.

The compound `CC(C)C1=C2[C@H]3CC[C@@H]4[C@@]5(C)CC[C@H](OC(=O)CC(C)(C)C(=O)O)C(C)(C)[C@@H]5CC[C@@]4(C)[C@]3(C)CC[C@@]2(c2nnc(-c3ccc(C(F)(F)F)cn3)o2)CC1=O` [Compound 27-11] showed a TI of 920.

As for `CC(C)C1=C2[C@H]3CC[C@@H]4[C@@]5(C)CC[C@H](OC(=O)CC(C)(C)C(=O)O)C(C)(C)[C@@H]5CC[C@@]4(C)[C@]3(C)CC[C@@]2(c2nnc(-c3ccncc3)o2)CC1=O` [Compound 27-13], the TI is given as 11765.

Turning to `CC(C)C1=C2[C@H]3CC[C@@H]4[C@@]5(C)CC[C@H](OC(=O)CC(C)(C)C(=O)O)C(C)(C)[C@@H]5CC[C@@]4(C)[C@]3(C)CC[C@@]2(c2nnc(-c3ncc(Cl)cn3)o2)CC1=O` [Compound 27-14], the TI is 9388.

With `CC(C)C1=C2[C@H]3CC[C@@H]4[C@@]5(C)CC[C@H](OC(=O)CC(C)(C)C(=O)O)C(C)(C)[C@@H]5CC[C@@]4(C)[C@]3(C)CC[C@@]2(Cc2nnc(Cc3ccc(Cl)cc3)o2)CC1=O` [Compound 33], the TI is on record as 11250.

The compound `CC(C)C1=C2[C@H]3CC[C@@H]4[C@@]5(C)CC[C@H](OC(=O)CC(C)(C)C(=O)O)C(C)(C)[C@@H]5CC[C@@]4(C)[C@]3(C)CC[C@@]2(c2ncc(-c3ccc(Cl)cc3)o2)CC1=O` [Compound 65] had a TI of 305.

In turn, `CC(C)C1=C2[C@H]3CC[C@@H]4[C@@]5(C)CC[C@H](OC(=O)CC(C)(C)C(=O)O)C(C)(C)[C@@H]5CC[C@@]4(C)[C@]3(C)CC[C@@]2(c2cnc(-c3ccc(Cl)cc3)o2)CC1=O` [Compound 77] displayed a TI of 1258.

In the case of `CC(C)C1=C2[C@H]3CC[C@@H]4[C@@]5(C)CC[C@H](OC(=O)CC(C)(C)C(=O)O)C(C)(C)[C@@H]5CC[C@@]4(C)[C@]3(C)CC[C@@]2(c2cc(=O)n(Cc3ccccc3)n2C)CC1` [Compound 89-2], the TI was determined as 633.
